# Test system: RSV-A2-GFP
# Test: Dose response experiments, progeny virus titered on HeLa cells
# Assay type: cell-based, human RSV strain A2
# Settings: ratio of EC50 (viral replication) and CC50 (cell viability)
# Experimental: Dose response experiments. 1HAEo-cells were infected as described, progeny virus collected, and tittered on HeLa cells in duplicate as described in SAR 2. During initial infection in 1HAEo-cells infectious media was replaced with media containing compounds at indicated concentrations at 2 hours post infection. Proportion of virus infected cells were quantified via indirect immunofluorescence assay.
# To further assess the therapeutic potential of compounds identified in SAR 1 and SAR 2, a therapeutic index (TI) of each compound was identified (e.g., ratio of […]). […] Overall, the TI was increased from 4.1 for compound 5a to 12.3 with compound 5f.
row,SMILES,therapeutic index (TI)
1,COC(=O)C1(c2c(-c3ccc(OC)cc3)[nH]c3ccccc23)Nc2cc(Br)ccc2C1=O (centres unmarked) [Compound 5f],12.3
2,COC(=O)C1(c2c(-c3ccccc3)[nH]c3ccccc23)Nc2cc(Cl)ccc2C1=O (centres unmarked) [Compound 5a],4.1

# Reference: patent US11566018B2, “Treatment of infectious disease” (The Governors of the University of Alberta, priority 2018, dated 2023)
